Laboratory results as given in ChEMBL document CHEMBL5385871, “Application and synthesis of thiazole ring in clinically approved drugs” (Eur J Med Chem, 2023).

Test system: Staphylococcus aureus
Test: Antibacterial activity against Staphylococcus aureus N133 infected in mouse assessed as bacterial growth reduction

Compound: CC(=O)O.CCCO/N=C(\C(=O)N[C@@H]1C(=O)N2C(C(=O)[O-])=C(Sc3nc(-c4cc[n+](C)cc4)cs3)CS[C@H]12)c1csc(NP(=O)(O)O)n1
- ED50: 1.6 mg/kg
